{"source": "PubChem BioAssay AID624099, ICCB-Longwood | 2012", "purpose": "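Knock-downs relieving repression by E2 of an HPV18 LCR luciferase reporter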 (primary screen)", "cell system": "human C33A cervical carcinoma cells (HPV-negative) stably expressing BPV1 E2 and an HPV18 LCR luciferase reporter", "reagents": "siRNA pool against human genes, 40 nM", "time to read-out": "72 h", "detection": "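HPV18 LCR reporter light per well, converted to plate-wise z-scores that exclude control wells, and averaged over triplicate plates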", "direction": "mean z-score and z-score: higher = stronger reporter signal, weaker E2 silencing", "call rule": "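Mean z ≥ 2 together with z ≥ 2 in two or more of the three replicates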", "note": "This is one part, drawn at random, of about 21,000 deposited reagents. Over the whole deposit, 497 (2.4%) got an active call. 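Higher z means weaker E2 silencing; only reporter increases were scored, and knock-downs that hurt cell survival may mask genuine repressor factors.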 Unmarked entries are inactive."}
{"gene knocked down": "RNF217 (ring finger protein 217)", "mean z-score": -0.12, "z-score, replicate A": -0.03, "z-score, replicate B": -0.05, "z-score, replicate C": -0.28}
{"gene knocked down": "SAP130 (Sin3A associated protein 130)", "mean z-score": -1.21, "z-score, replicate A": -1.44, "z-score, replicate B": -1.52, "z-score, replicate C": -0.66}
{"gene knocked down": "CRACDL (CRACD like)", "mean z-score": -0.75, "z-score, replicate A": -1.09, "z-score, replicate B": -0.39, "z-score, replicate C": -0.76}
{"gene knocked down": "ERVW-1 (endogenous retrovirus group W member 1, envelope)", "mean z-score": -0.34, "z-score, replicate A": -0.4, "z-score, replicate B": -0.42, "z-score, replicate C": -0.19}
{"gene knocked down": "LINC01342 (long independently transcribed non-coding RNA 1342)", "mean z-score": 0.53, "z-score, replicate A": 0.6, "z-score, replicate B": 0.49, "z-score, replicate C": 0.52}
{"gene knocked down": "SPATA41 (spermatogenesis associated 41)", "mean z-score": -1.02, "z-score, replicate A": -1.22, "z-score, replicate B": -1.07, "z-score, replicate C": -0.76}
{"gene knocked down": "OR51E2 (olfactory receptor family 51 subfamily E member 2)", "mean z-score": -0.16, "z-score, replicate A": -0.57, "z-score, replicate B": 0.16, "z-score, replicate C": -0.07}
{"gene knocked down": "TEAD2 (TEA domain transcription factor 2)", "mean z-score": 1.82, "z-score, replicate A": 1.79, "z-score, replicate B": 1.79, "z-score, replicate C": 1.88}
{"gene knocked down": "CATSPER2 (cation channel sperm associated 2)", "mean z-score": 0.86, "z-score, replicate A": 1.06, "z-score, replicate B": 0.93, "z-score, replicate C": 0.6}
{"gene knocked down": "LOC389710 (retired record)", "mean z-score": -1.02, "z-score, replicate A": -0.74, "z-score, replicate B": -1.5, "z-score, replicate C": -0.81}
{"gene knocked down": "LRRC8D (leucine rich repeat containing 8 VRAC subunit D)", "mean z-score": -1.51, "z-score, replicate A": -1.79, "z-score, replicate B": -1.63, "z-score, replicate C": -1.1}
{"gene knocked down": "SLC17A9", "mean z-score": 1.54, "z-score, replicate A": 1.64, "z-score, replicate B": 1.53, "z-score, replicate C": 1.44}
{"gene knocked down": "RAX (retina and anterior neural fold homeobox)", "mean z-score": -0.83, "z-score, replicate A": -0.7, "z-score, replicate B": -0.63, "z-score, replicate C": -1.15}
{"gene knocked down": "ARHGAP27P1 (Rho GTPase activating protein 27 pseudogene 1)", "mean z-score": 0.3, "z-score, replicate A": 0.52, "z-score, replicate B": 0.51, "z-score, replicate C": -0.14}
{"gene knocked down": "C1QC (complement C1q C chain)", "mean z-score": -0.07, "z-score, replicate A": -0.32, "z-score, replicate B": 0.26, "z-score, replicate C": -0.14}
{"gene knocked down": "TMCC1 (transmembrane and coiled-coil domain family 1)", "mean z-score": 0.79, "z-score, replicate A": 0.83, "z-score, replicate B": 0.75, "z-score, replicate C": 0.8}
{"gene knocked down": "FLJ21369 (retired record)", "mean z-score": -0.9, "z-score, replicate A": -0.56, "z-score, replicate B": -0.96, "z-score, replicate C": -1.16}
{"gene knocked down": "CFAP95 (cilia and flagella associated protein 95)", "mean z-score": -0.2, "z-score, replicate A": 0.12, "z-score, replicate B": -0.35, "z-score, replicate C": -0.36}
{"gene knocked down": "CLCN7 (Cl-/H+ antiporter 7)", "mean z-score": -0.66, "z-score, replicate A": -0.54, "z-score, replicate B": -0.66, "z-score, replicate C": -0.78}
{"gene knocked down": "EID1 (EP300 interacting inhibitor of differentiation 1)", "mean z-score": 0.81, "z-score, replicate A": 0.52, "z-score, replicate B": 0.99, "z-score, replicate C": 0.92}
{"gene knocked down": "IFNA17 (interferon alpha 17)", "mean z-score": 0.12, "z-score, replicate A": 0.23, "z-score, replicate B": 0.12, "z-score, replicate C": 0}
{"gene knocked down": "POLR1H (RNA polymerase I subunit H)", "mean z-score": 0.33, "z-score, replicate A": 0.53, "z-score, replicate B": 0.29, "z-score, replicate C": 0.16}
{"gene knocked down": "ARPC2 (actin related protein 2/3 complex subunit 2)", "mean z-score": 0.2, "z-score, replicate A": 0.19, "z-score, replicate B": 0.18, "z-score, replicate C": 0.23}
{"gene knocked down": "IRF4 (interferon regulatory factor 4)", "mean z-score": -1.24, "z-score, replicate A": -1.19, "z-score, replicate B": -1.09, "z-score, replicate C": -1.44}
{"gene knocked down": "CCDC106 (coiled-coil domain containing 106)", "mean z-score": 1.31, "z-score, replicate A": 1.35, "z-score, replicate B": 1.3, "z-score, replicate C": 1.29}
{"gene knocked down": "FMC1 (formation of mitochondrial complex V assembly factor 1)", "mean z-score": -2.1, "z-score, replicate A": -2.15, "z-score, replicate B": -2.02, "z-score, replicate C": -2.15}
{"gene knocked down": "FBXL15 (F-box and leucine rich repeat protein 15)", "mean z-score": 1.03, "z-score, replicate A": 1.13, "z-score, replicate B": 0.66, "z-score, replicate C": 1.3}

Only “z-score, replicate C”, for 2 of the entries above:
CATSPER2 (cation channel sperm associated 2)	0.6
LOC389710 (retired record)	-0.81
